Results of unrelated studies side by side (data: NIAID ChemDB).

Common to all: toxicity to cultured cells; cells: CEM; endpoint: CC50

CCn: concentration that lowers growth or viability of the cells by n%.

structure	read by	value
CCOC(=O)CCc1ccccc1O[P@](=O)(N[C@@H](C)C(=O)OC(C)C)OC[C@H]1O[C@@H](n2cnc3c(N)nc(N)nc32)[C@](C)(O)[C@@H]1O		>100 µM
CC(C)=CCOc1cc(NC(=S)c2ccoc2C)ccc1Cl		>100 µg/mL
Cc1cn([C@H]2C[C@H](N=[N+]=[N-])[C@@H](CO)O2)c(=O)[nH]c1=O		>1000 µM
Cc1cc(S(=O)(=O)Nc2n[nH]c(Nc3ccc4ccccc4c3)n2)c(S)cc1Cl		>200 µM
O=c1[nH]cnc2c1ncn2[C@H]1CC[C@@H](CO)O1		>500 µg/mL
COc1cccc(Nc2nc(NS(=O)(=O)c3cc(C)c(Cl)cc3S)n[nH]2)c1		185 µM
CCCCc1cnnn1[C@@H]1O[C@H](CO[Si](C)(C)C(C)(C)C)C2(OS(=O)(=O)C=C2N)[C@H]1O[Si](C)(C)C(C)(C)C		>1.5 µM
[B-][P@](=O)(OC[C@H]1O[C@@H](n2cc(C)c(=O)[nH]c2=O)C[C@@H]1N=[N+]=[N-])OP(=O)(O)C(F)(F)P(=O)(O)O		>165 µM
Cc1ccnc2c1NC(=O)c1cccnc1N2C1CC1		>0.11 µM
CC(C)(C)NC(=O)[C@@H]1C[C@@H]2CCCC[C@@H]2CN1C[C@@H](OC(=O)COc1ccc(C[C@H](N)C(=O)O)cc1)[C@H](Cc1ccccc1)NC(=O)[C@H](CC(N)=O)NC(=O)c1ccc2ccccc2n1	MTT	>100 µM
Nc1ccn([C@@H]2CC[C@H](CO)O2)c(=O)n1		58 µM
Cn1c(=O)c2c(nc3sc4c(n32)C(=O)c2c(O)ccc(O)c2C4=O)n(C)c1=O		0.2 µM
Cc1ccc(NC(=O)c2ccccc2SSc2ccccc2C(=O)Nc2ccc(C)cc2)cc1		28 µM
O=C(NCc1cccc(O)c1O)c1ccc2ccc(C(=O)O)c(O)c2n1	MTT	>100 µM
O=C(NC(C(=O)O)c1ccccc1)c1ccccc1SSc1ccccc1C(=O)NC(C(=O)O)c1ccccc1		>100 µM
Nc1nc2c(ncn2[C@H]2CC[C@@H](CO)O2)c(=O)o1		>500 µg/mL
CC(C)CN(C[C@@H](O)[C@H](Cc1ccccc1)NC(=O)OCc1ccccc1)S(=O)(=O)c1ccccc1		8 µM
CCCCCCCC/C=C\CCCCCCCC(=O)OCC(COC(=O)CCCCCCC/C=C\CCCCCCCC)OC(=O)CCC(=O)O[C@H](CN1C[C@H]2CCCC[C@H]2C[C@H]1C(=O)NC(C)(C)C)[C@H](Cc1ccccc1)NC(=O)[C@H](CC(N)=O)NC(=O)c1ccc2ccccc2n1	MTT	>100 µM
CC(C)OC(=O)CCc1ccccc1OP(=O)(N[C@@H](C)C(=O)OC(C)C)OC[C@H]1O[C@@H](n2cnc3c(N)nc(N)nc32)[C@](C)(O)[C@@H]1O		>100 µM
COC(=O)[C@@H](C)NP(=O)(OC[C@@H]1C=C[C@H](n2cc(C)c(=O)[nH]c2=O)O1)Oc1ccccc1		>250 µM
CN(C)CCCNC(=O)c1cc(NC(=O)c2cc(NC(=O)c3cc(NC(=O)c4cccc(C(=O)Nc5cc(C(=O)Nc6cc(C(=O)Nc7cc(C(=O)NCCCN(C)C)n(C)c7)n(C)c6)n(C)c5)n4)cn3C)cn2C)cn1C		>100 µM
CCCc1cn([C@@H]2O[C@H](CO[Si](C)(C)C(C)(C)C)C3(OS(=O)(=O)C=C3N)[C@H]2O[Si](C)(C)C(C)(C)C)nn1		>1.7 µM
Nc1nc(Cl)nc2c1ncn2[C@H]1CC[C@@H](CO)O1		3 µM
O=C(Nc1ccc([N+](=O)[O-])cc1)c1ccccc1SSc1ccccc1C(=O)Nc1ccc([N+](=O)[O-])cc1		14 µM
CN(C)CCCNC(=O)c1cc(NC(=O)c2cc(NC(=O)c3cc(NC(=O)c4ccc(C(=O)Nc5cc(C(=O)Nc6cc(C(=O)Nc7cc(C(=O)NCCCN(C)C)n(C)c7)n(C)c6)n(C)c5)cc4)cn3C)cn2C)cn1C		>100 µM
Oc1ccc2c(c1)OC[C@]1(O)Cc3cc(O)c(O)cc3[C@H]21		12.1 µM
COc1ccc(N2CCN(CN3C(=O)c4cccnc4N(C4CC4)c4nccc(C)c43)CC2)cc1	XTT	>200 µM
Cc1cn([C@H]2C[C@H](N=[N+]=[N-])[C@@H](CO)O2)c(=O)[nH]c1=O		>0.003 µM
O=C(NNc1ccccc1)c1ccc2ccc(C(=O)O)c(O)c2n1	MTT	>100 µM
Nc1nc2c(ncn2[C@@H]2C[C@H](CO)[C@@H](O)[C@H]2O)c(=O)o1		>500 µg/mL
CN(C)CCCNC(=O)c1cc(NC(=O)c2cc(NC(=O)c3cc(NC4C(=O)c5ccccc5C4=O)cn3C)cn2C)cn1C		56 µM
Cc1cc(S(=O)(=O)Nc2nc(N)nc(N3CCCCC3)n2)c(S)cc1Cl		>200 µM
CCOC(=O)[C@H](C)N[P@](=O)(OC[C@H]1O[C@@H](n2cnc3c(N)nc(N)nc32)[C@](C)(O)[C@@H]1O)Oc1ccccc1CCC(=O)OC(C)C		>100 µM
Cc1cc(C=O)cc2c1OP(=O)(OC[C@@H]1C=C[C@H](n3cc(C)c(=O)[nH]c3=O)O1)OC2		86 µM
Cc1ccnc2c1N(CN1CCN(c3ccccc3)CC1)C(=O)c1cccnc1N2C1CC1	XTT	>200 µM
Cc1cc(S(=O)(=O)Nc2nc(N)nc3nc4ccccc4n23)c(S)cc1Cl		>200 µM
CNC(=O)c1cn([C@@H]2O[C@H](CO[Si](C)(C)C(C)(C)C)C3(OS(=O)(=O)C=C3N)[C@H]2O[Si](C)(C)C(C)(C)C)nn1		>1.2 µM
CN(C)CCCNC(=O)c1cc(NC(=O)c2cc(NC(=O)c3cc(NC(=O)c4ccc(C(=O)Nc5cc(C(=O)Nc6cc(C(=O)Nc7cc(C(=O)NCCCN(C)C)n(C)c7)n(C)c6)n(C)c5)nc4)cn3C)cn2C)cn1C		>100 µM
O=C(Nc1cc(C(F)(F)F)cc(C(F)(F)F)c1)c1ccccc1SSc1ccccc1C(=O)Nc1cc(C(F)(F)F)cc(C(F)(F)F)c1		3.6 µM
O=C(Nc1ccc(O)c(O)c1)c1ccc2ccc(C(=O)O)c(O)c2n1	MTT	100 µM
CCN(CC)c1ccc(NC(=O)c2ccccc2SSc2ccccc2C(=O)Nc2ccc(N(CC)CC)cc2)cc1		20 µM
Cc1cc(S(=O)(=O)NC2=NCCCN2)c(S)cc1Cl		67.9 µM
CCOC(=O)NN(C(=O)OCC)C(=C(C1CCCCC1)N1CCOCC1)N(NC(=O)OCC)C(=O)OCC		200 µM
Nc1nc(Cl)c2ncn(/C=C3/C[C@@H]3CO)c2n1		96 µM
Nc1nc(=O)n([C@@H]2CS[C@H](CO)O2)cc1F		>100 µM
Nc1nc(NC2CC2)c2ncn(/C=C3/C[C@@H]3CO)c2n1		70 µM
Cc1cn([C@@H]2O[C@H](CO[Si](C)(C)C(C)(C)C)C3(OS(=O)(=O)C=C3N)[C@H]2O[Si](C)(C)C(C)(C)C)c(=O)n(C)c1=O		>20 µg/mL
CC(C)(C)[Si](C)(C)OC[C@H]1O[C@@H](n2nncc2C(N)=O)[C@H](O[Si](C)(C)C(C)(C)C)[C@]12OS(=O)(=O)C=C2N		>0.14 µM
CCCCCCCCCCCCCCCC(=O)OCC(COC(=O)CCCCCCCCCCCCCCC)OC(=O)CCC(=O)O[C@H](CN1C[C@H]2CCCC[C@H]2C[C@H]1C(=O)NC(C)(C)C)[C@H](Cc1ccccc1)NC(=O)[C@H](CC(N)=O)NC(=O)c1ccc2ccccc2n1	MTT	>100 µM
O=c1cc2c(=O)oc3cc(O)c(O)oc3c2c(O)c1O		15.7 µM
Cc1c(O)cccc1C(=O)N[C@@H](CSc1ccccc1)[C@H](O)CN1C[C@H]2CCCC[C@H]2C[C@H]1C(=O)NC(C)(C)C	MTT	>100 µM
Cc1cn([C@H]2C=C[C@@H](COP(=O)(Nc3cc(C(=O)Nc4cc(C(=O)NCCC(=N)N)n(C)c4)n(C)c3)OC(C)C)O2)c(=O)[nH]c1=O	MTT	>200 µM
COc1cc(NC(=O)c2ccc3ccc(C(=O)O)c(O)c3n2)cc(O)c1O	MTT	>100 µM
CC(C)(C)[Si](C)(C)OC[C@H]1O[C@@H](n2cc(C(N)=O)nn2)[C@H](O[Si](C)(C)C(C)(C)C)C12OS(=O)(=O)C=C2N		>0.9 µM
COc1c(-c2ccc(O)c(O)c2)oc2c(O)c(O)cc(O)c2c1=O		78 µM
Cc1ccnc2c1N(CN1CCN(c3ccc(Cl)cc3)CC1)C(=O)c1cccnc1N2C1CC1	XTT	>1000 µM
CC1=C(C(=O)Nc2ccc(Cl)c(C(=O)OC(C)C)c2)SCCO1		2 µM
Cc1cc2nc3nc(N)nc(NS(=O)(=O)c4cc(C)c(Cl)cc4S)n3c2cc1C		>200 µM
Cc1ccnc2c1N(CN1CCN(Cc3ccccc3)CC1)C(=O)c1cccnc1N2C1CC1	XTT	>200 µM
S=C(S)N1CCOCC1		42 µM
Nc1nc(Cl)c2ncn(/C=C3/C[C@H]3CO)c2n1		70 µM
O=C(Nc1ccc2ccc(C(=O)O)c(O)c2n1)c1ccccc1	MTT	>100 µM
O=C(CNC(=O)c1ccccc1SCC(=O)NC12CC3CC4CC(C1)C4(C3)C2)Nc1ccc(Cl)cc1	trypan blue	5 µM
Cc1ccnc2c1N(CN1CCN(C)CC1)C(=O)c1cccnc1N2C1CC1	XTT	>200 µM
Cc1cn([C@H]2C=C[C@@H](COP(=O)(Nc3cc(C(=O)NCCC(=N)N)n(C)c3)OC(C)C)O2)c(=O)[nH]c1=O	MTT	>200 µM
CCc1cc(NCc2nc3c(C)ccc(C)c3o2)c(=O)[nH]c1C		>60 µM
Cc1cc(S(=O)(=O)Nc2n[nH]c(-c3ccc(Cl)cn3)n2)c(S)cc1Cl		116.7 µM
Cc1cn([C@H]2C[C@H](N=[N+]=[N-])[C@@H](COP(=O)(Nc3cc(C(=O)NCCC(=N)N)n(C)c3)OC3CCCCC3)O2)c(=O)[nH]c1=O	MTT	>200 µM
Nc1ccn([C@H]2C=C[C@@H](CO)O2)c(=O)n1		22 µM
N#Cc1cc2c(cc1C#N)/C(=N/c1cccc(N)n1)N=C2Nc1cccc(N)n1		4 µM
Cc1cc(S(=O)(=O)Nc2n[nH]c(Nc3ccccc3)n2)c(SSc2cc(Cl)c(C)cc2S(=O)(=O)Nc2n[nH]c(Nc3ccccc3)n2)cc1Cl		102.3 µM
CN=C1N(C)C(=O)OC12[C@@H](CO[Si](C)(C)C(C)(C)C)O[C@@H](n1cc(C)c(=O)n(C)c1=O)[C@@H]2O[Si](C)(C)C(C)(C)C		≥175 µM
COC(=O)C(C)NP(=O)(OC[C@H]1C/C1=C/n1cnc2c(N)nc(N)nc21)Oc1ccccc1		20 µM
O=P(c1ccccc1)(c1ccccc1)c1ccccc1		40 µM
CCOCn1c(Cc2ccccc2)c(C(C)C)c(=O)[nH]c1=O		>20 µg/mL
Fc1cccc(F)c1C1SCc2nc3ccccc3n21		19 µM
O=C(Nc1ccccc1O)c1ccccc1SSc1ccccc1C(=O)Nc1ccccc1O		10 µM
Cc1cn([C@H]2C[C@H](N=[N+]=[N-])[C@@H](COP(=O)(Nc3cc(C(=O)Nc4cc(C(=O)Nc5cc(C(=O)NCCC#N)n(C)c5)n(C)c4)n(C)c3)OC3CCCCC3)O2)c(=O)[nH]c1=O	MTT	121 µM

A second listing of 12 rows from above:

structure	read by	value
CN=C1N(C)C(=O)OC12[C@@H](CO[Si](C)(C)C(C)(C)C)O[C@@H](n1cc(C)c(=O)n(C)c1=O)[C@@H]2O[Si](C)(C)C(C)(C)C		≥175 µM
O=c1cc2c(=O)oc3cc(O)c(O)oc3c2c(O)c1O		15.7 µM
Cc1cn([C@H]2C[C@H](N=[N+]=[N-])[C@@H](CO)O2)c(=O)[nH]c1=O		>0.003 µM
COc1cc(NC(=O)c2ccc3ccc(C(=O)O)c(O)c3n2)cc(O)c1O	MTT	>100 µM
Cc1cc(S(=O)(=O)Nc2n[nH]c(Nc3ccc4ccccc4c3)n2)c(S)cc1Cl		>200 µM
CCOC(=O)[C@H](C)N[P@](=O)(OC[C@H]1O[C@@H](n2cnc3c(N)nc(N)nc32)[C@](C)(O)[C@@H]1O)Oc1ccccc1CCC(=O)OC(C)C		>100 µM
Cc1ccnc2c1N(CN1CCN(C)CC1)C(=O)c1cccnc1N2C1CC1	XTT	>200 µM
Cc1c(O)cccc1C(=O)N[C@@H](CSc1ccccc1)[C@H](O)CN1C[C@H]2CCCC[C@H]2C[C@H]1C(=O)NC(C)(C)C	MTT	>100 µM
CCCCc1cnnn1[C@@H]1O[C@H](CO[Si](C)(C)C(C)(C)C)C2(OS(=O)(=O)C=C2N)[C@H]1O[Si](C)(C)C(C)(C)C		>1.5 µM
Cc1cc2nc3nc(N)nc(NS(=O)(=O)c4cc(C)c(Cl)cc4S)n3c2cc1C		>200 µM
Nc1nc(Cl)c2ncn(/C=C3/C[C@H]3CO)c2n1		70 µM
CNC(=O)c1cn([C@@H]2O[C@H](CO[Si](C)(C)C(C)(C)C)C3(OS(=O)(=O)C=C3N)[C@H]2O[Si](C)(C)C(C)(C)C)nn1		>1.2 µM

An empty or dashed field is not shown. Lines come from different laboratories, so protocols vary.